Measurements as given in patent publication US20040063695A1, “Cystic fibrosis transmembrane conductance regulator protein inhibitors and uses thereof” (priority 2002, published 2004).

Test system: cholera toxin-induced intestinal fluid secretion
Set-up: species or system mice
Settings: mouse, in vivo

Substance: 3-[(3-trifluoromethyl)phenyl]-5-[(4-carboxyphenyl)methylene]-2-thioxo-4-thiazolidinone [CFTRinh-172]
- intestinal fluid accumulation (ratio of intestinal weight before vs. after luminal fluid removal): remarkably reduced intestinal fluid accumulation
